From a compilation of properties of binary mixtures (doi:10.1016/j.fluid.2021.113137)

Assay: xn = mol fraction of the nth substance listed
Settings: 100 kPa

CC[n+]1ccn(C)c1.O=S(=O)(F)[N-]S(=O)(=O)F + O
Settings | electrical conductivity [S/m] | mass density [kg/m3] | viscosity [mPa·s]
288.15 K, x1 = 0.7211 | 1.94 | – | –
288.15 K, x1 = 0.771 | 1.79 | – | –
288.15 K, x1 = 0.7797 | – | 1437.8 | 16.98
288.15 K, x1 = 0.8143 | – | 1440.2 | 18.13
288.15 K, x1 = 0.8663 | 1.54 | – | –
288.15 K, x1 = 0.8796 | – | 1444.6 | 20.68
288.15 K, x1 = 0.9111 | – | 1446.5 | 22.02
288.15 K, x1 = 0.9349 | 1.39 | – | –
288.15 K, x1 = 0.9433 | – | 1448.3 | 23.46
288.15 K, x1 = 0.9693 | – | 1449.7 | 24.73
288.15 K, x1 = 0.9748 | 1.3 | – | –
293.15 K, x1 = 0.771 | 2.05 | – | –
293.15 K, x1 = 0.7797 | – | 1433.2 | 14.66
293.15 K, x1 = 0.8143 | – | 1435.7 | 15.68
293.15 K, x1 = 0.8207 | 1.92 | – | –
293.15 K, x1 = 0.8466 | – | 1437.9 | 16.7
293.15 K, x1 = 0.8663 | 1.78 | – | –
293.15 K, x1 = 0.8796 | – | 1440 | 17.78
293.15 K, x1 = 0.8994 | 1.7 | – | –
293.15 K, x1 = 0.9111 | – | 1442.1 | 18.92
293.15 K, x1 = 0.9349 | 1.6 | – | –
293.15 K, x1 = 0.9433 | – | 1443.9 | 20.1
293.15 K, x1 = 0.9693 | – | 1445.3 | 21.13
298.15 K, x1 = 0.7211 | 2.5 | – | –
298.15 K, x1 = 0.771 | 2.32 | – | –
298.15 K, x1 = 0.7797 | – | 1428.6 | 12.82
298.15 K, x1 = 0.8143 | – | 1430.8 | 13.69
298.15 K, x1 = 0.8796 | – | 1435.4 | 15.47
298.15 K, x1 = 0.8994 | 1.93 | – | –
298.15 K, x1 = 0.9349 | 1.83 | – | –
298.15 K, x1 = 0.9433 | – | 1439.2 | 17.4
298.15 K, x1 = 0.9693 | – | 1440.6 | 18.26
298.15 K, x1 = 0.9748 | 1.73 | – | –
303.15 K, x1 = 0.7211 | 2.81 | – | –
303.15 K, x1 = 0.7797 | – | 1423.7 | 11.3
303.15 K, x1 = 0.8143 | – | 1426.3 | 12.02
303.15 K, x1 = 0.8207 | 2.46 | – | –
303.15 K, x1 = 0.8663 | 2.29 | – | –
303.15 K, x1 = 0.8796 | – | 1430.7 | 13.57
303.15 K, x1 = 0.9349 | 2.08 | – | –
303.15 K, x1 = 0.9433 | – | 1434.4 | 15.21
303.15 K, x1 = 0.9693 | – | 1436 | 15.93
303.15 K, x1 = 0.9748 | 1.97 | – | –
308.15 K, x1 = 0.8143 | – | 1421.7 | 10.7
308.15 K, x1 = 0.8207 | 2.75 | – | –
308.15 K, x1 = 0.8466 | – | 1423.9 | 11.35
308.15 K, x1 = 0.8796 | – | 1426 | 12
308.15 K, x1 = 0.8994 | 2.45 | – | –
308.15 K, x1 = 0.9111 | – | 1428.1 | 12.69
308.15 K, x1 = 0.9349 | 2.34 | – | –
308.15 K, x1 = 0.9433 | – | 1430 | 13.4
308.15 K, x1 = 0.9693 | – | 1431.4 | 14.01
308.15 K, x1 = 0.9748 | 2.23 | – | –
313.15 K, x1 = 0.7211 | 3.44 | – | –
313.15 K, x1 = 0.771 | 3.22 | – | –
313.15 K, x1 = 0.8143 | – | 1417.1 | 9.56
313.15 K, x1 = 0.8663 | 2.85 | – | –
313.15 K, x1 = 0.8796 | – | 1421.5 | 10.69
313.15 K, x1 = 0.8994 | 2.74 | – | –
313.15 K, x1 = 0.9111 | – | 1423.6 | 11.29
313.15 K, x1 = 0.9349 | 2.62 | – | –
313.15 K, x1 = 0.9433 | – | 1425.4 | 11.9
313.15 K, x1 = 0.9693 | – | 1426.6 | 12.42
313.15 K, x1 = 0.9748 | 2.48 | – | –
318.15 K, x1 = 0.7211 | 3.79 | – | –
318.15 K, x1 = 0.771 | 3.54 | – | –
318.15 K, x1 = 0.7797 | – | 1409.9 | 8.1
318.15 K, x1 = 0.8143 | – | 1412.5 | 8.6
318.15 K, x1 = 0.8466 | – | 1414.6 | 9.11
318.15 K, x1 = 0.8663 | 3.15 | – | –
318.15 K, x1 = 0.8796 | – | 1417 | 9.59
318.15 K, x1 = 0.8994 | 3.03 | – | –
318.15 K, x1 = 0.9111 | – | 1418.9 | 10.11
318.15 K, x1 = 0.9349 | 2.9 | – | –
318.15 K, x1 = 0.9433 | – | 1420.9 | 10.64
318.15 K, x1 = 0.9748 | 2.77 | – | –
323.15 K, x1 = 0.7211 | 4.14 | – | –
323.15 K, x1 = 0.771 | 3.88 | – | –
323.15 K, x1 = 0.7797 | – | 1405.2 | 7.34
323.15 K, x1 = 0.8143 | – | 1407.9 | 7.78
323.15 K, x1 = 0.8207 | 3.7 | – | –
323.15 K, x1 = 0.8466 | – | 1410.2 | 8.23
323.15 K, x1 = 0.8663 | 3.45 | – | –
323.15 K, x1 = 0.9349 | 3.2 | – | –
323.15 K, x1 = 0.9433 | – | 1416.2 | 9.57
323.15 K, x1 = 0.9693 | – | 1417.6 | 9.96
323.15 K, x1 = 0.9748 | 3.05 | – | –
328.15 K, x1 = 0.7211 | 4.5 | – | –
328.15 K, x1 = 0.771 | 4.23 | – | –
328.15 K, x1 = 0.7797 | – | 1400.6 | 6.68
328.15 K, x1 = 0.8143 | – | 1403.4 | 7.07
328.15 K, x1 = 0.8207 | 4.03 | – | –
328.15 K, x1 = 0.8466 | – | 1405.6 | 7.48
328.15 K, x1 = 0.8663 | 3.79 | – | –
328.15 K, x1 = 0.8796 | – | 1407.9 | 7.74
328.15 K, x1 = 0.8994 | 3.66 | – | –
328.15 K, x1 = 0.9111 | – | 1410 | 8.25
328.15 K, x1 = 0.9433 | – | 1411.9 | 8.65
328.15 K, x1 = 0.9693 | – | 1413.3 | 9
328.15 K, x1 = 0.9748 | 3.36 | – | –
333.15 K, x1 = 0.771 | 4.6 | – | –
333.15 K, x1 = 0.7797 | – | 1396.2 | 6.11
333.15 K, x1 = 0.8143 | – | 1398.9 | 6.46
333.15 K, x1 = 0.8207 | 4.38 | – | –
333.15 K, x1 = 0.8466 | – | 1401.1 | 6.83
333.15 K, x1 = 0.8994 | 3.99 | – | –
333.15 K, x1 = 0.9349 | 3.84 | – | –
333.15 K, x1 = 0.9433 | – | 1407.4 | 7.86
333.15 K, x1 = 0.9693 | – | 1408.9 | 8.17
